Reference: patent US20240218054A1 (MABLOC, published 2024)

Molecular target: T1, recombinant YFV E protein (soluble E, sE; YFV Asibi strain) (Yellow fever virus, Asibi strain)
T1 construct: also called YFV E antigen; YFV E monomer
Test: BLI monovalent (IgG on tip)

B1: ADI-42126 (antibody, V domains shown)
VH: QVQLVQSGAEVKKPGASVKVSCKASGYTFTGYYMHWVRQAPGQGLEWMGWINPNSGGTNYAQKFQGWVTMTRDTSISTAYMELSRLRSDDTAVYYCASGLSPDFSVLDVWGQGTTVTVSS
VL: [about 120 residues not given here]
notes: full-length IgG
  Kd: 0.331 µM
